# Values of other authors as cited in patent US4970199A, “Steroidal glycolipids as host resistance stimulators against viral infection” (priority 1989, dated 1990).
# Tested on: HIV
# Conditions: recombinant IL-2; cited from earlier work
substance,measurement,value
Interleukin-2: Protein made by white blood cells that mediates production of interferon,preliminary results of therapy,not encouraging
